Measured values as given in patent US11096923B2, “Pharmaceutical composition containing polymyxin B/trimethoprim based therapeutics” (University of Rochester, priority 2016, dated 2021).

System: P. aeruginosa strain PA01
Assay type: cell-based, Pseudomonas aeruginosa
Conditions: after 40 hours at 1×MIC, 8 colonies
Description: Spontaneous resistance to the indicated test agent(s) was measured for P. aeruginosa strain PA01 and S. aureus strain UAMS-1 using two liquid culture approaches. […] Growth was measured using the BacterioScan s216Dx laser microbial growth monitor, with optical measurements taken every 3 minutes over 40 hours. Following 40 hours, samples were plated for to measure viable colony forming units and re-tested for drug susceptibility.
To determine if these colonies represented untreated cells vs. resistant cells, 8 individual colonies from each treatment condition were randomly selected and tested for MICs.
Using an automated laser microbial growth monitor, the optical profiles of these cultures were measured continuously over time. […] Again 8 colonies were selected at random from each treatment group.

`CO[C@H]1/C=C/O[C@@]2(C)Oc3c(C)c(O)c4c(O)c(c(/C=N/N5CCN(C)CC5)c(O)c4c3C2=O)NC(=O)/C(C)=C\C=C\[C@H](C)[C@H](O)[C@@H](C)[C@@H](O)[C@@H](C)[C@H](OC(C)=O)[C@@H]1C` [Rifampicin, rifampicin] was tested, and the “resistance of recovered cells on MIC retest” value was 2-8 ×MIC.
